Test results as given in ChEMBL document CHEMBL3091338, “Secoemestrin D, a cytotoxic epitetrathiodioxopiperizine, and emericellenes A-E, five sesterterpenoids from Emericella sp. AST0036, a fungal endophyte of Astragalus lentiginosus1” (J Nat Prod, 2013).

Test system: A549
Experiment: Selectivity for human HepG2 cells over human A549 cells

For `COc1cc2c(c3oc4cccc(O)c4c(=O)c13)[C@@H]1C=CO[C@@H]1O2` [STERIGMATOCYSTIN], the Selectivity ratio was 80.
